# Data taken from PMC12017303 (Science Advances, 2025).
# Molecular target: SARS-CoV-2 M^Pro (Severe acute respiratory syndrome coronavirus 2, UniProt P0DTD1)
# Test: M^Pro inhibition assay (fluorogenic peptide substrate, 1 h preincubation)
# Type: biochemical
smiles,measurement,value
Cc1[nH]c(=O)n(-c2cncc3ccccc23)c(=O)c1-n1nnc2ccccc21,IC50,7.4 µM
